These results are taken from article PMC10944477 (Communications Biology, 2024).

The data set deals with CN(C)[C@@H]1C(=O)C(C(N)=O)=C(O)[C@@]2(O)C(=O)C3=C(O)c4c(O)cccc4[C@@](C)(O)[C@H]3C[C@@H]12. Kind of data set: purified protein. The settings on record: pH 8.5.

For the substance Tet(56-2) (Legionella clemsonensis), the Km came to 5.2 ± 0.4 µM. As for Tet(56-3) (Legionella massiliensis), the Km was found to be 14.6 ± 2.0 µM.

Broadly, the Km is the substrate concentration at which the rate is half of its maximum.
